Measured values from several laboratories, pooled; numbers as filed in NIAID ChemDB.

Shared fields: whole-cell or culture tests; organism: Tacaribe virus

Conditions beyond the fields shown may differ between rows. ECn is the concentration giving n% inhibition of infection, replication or growth.

{"structure": "O=S1(=O)C[C@H](O)[C@H](O)CS1", "cells": "VERO", "measure": "EC50", "read by": "virus yield", "strain": "11573", "value": "42.6 µM"}
{"structure": "Nc1nccc2c1ncn2[C@@H]1C=C(CO)[C@@H](O)[C@H]1O", "measure": "MIC", "value": "1 µg/mL"}
{"structure": "Cc1cn([C@@H]2O[C@H](CO)[C@](O)(C(F)(F)F)[C@H]2O)c(=O)[nH]c1=O", "cells": "VERO", "measure": "EC50", "read by": "cytopathic effect", "value": ">50 µg/mL"}
{"structure": "Nc1ncnc2c1ncn2[C@@H]1C=C(CO)[C@@H](O)[C@H]1O", "cells": "VERO", "measure": "EC50", "read by": "cytopathic effect", "value": "1.5 µg/mL"}
{"structure": "Nc1ncnc2c1ncn2C(CF)CCCO", "cells": "VERO", "measure": "EC50", "read by": "cytopathic effect", "value": ">50 µg/mL"}
{"structure": "Nc1nccc2c1ncn2[C@@H]1C[C@H](CO)[C@@H](O)[C@H]1O", "measure": "MIC", "value": "2 µg/mL"}
{"structure": "C=C[C@H](O)C1=C[C@@H](n2cnc3c(N)ncnc32)[C@H](O)[C@@H]1O", "cells": "VERO", "measure": "EC50", "read by": "cytopathic effect", "value": ">50 µg/mL"}
{"structure": "Nc1ccn([C@@H]2C=C(CO)[C@@H](O)[C@H]2O)c(=O)n1", "cells": "VERO", "measure": "EC50", "read by": "cytopathic effect", "value": "0.03 µg/mL"}
{"structure": "NC(N)=Nc1ccccc1SSc1ccccc1N=C(N)N", "cells": "VERO", "measure": "EC50", "read by": "virus yield", "strain": "11573", "value": "3.6 µM"}
{"structure": "Nc1nccc2c1ncn2[C@@H]1CC[C@@H](O)[C@H]1O", "measure": "MIC", "value": "0.01 µg/mL"}
{"structure": "Nc1ccn(CCCC(O)CF)c(=O)n1", "cells": "VERO", "measure": "EC50", "read by": "cytopathic effect", "value": ">200 µg/mL"}
{"structure": "O=c1ccn([C@@H]2O[C@H](CO)[C@](O)(C(F)(F)F)[C@H]2O)c(=O)[nH]1", "cells": "VERO", "measure": "EC50", "read by": "cytopathic effect", "value": ">200 µg/mL"}
{"structure": "C=C[C@@H](O)C1=C[C@@H](n2cnc3c(N)ncnc32)[C@H](O)[C@@H]1O", "cells": "VERO", "measure": "EC50", "read by": "cytopathic effect", "value": ">50 µg/mL"}
{"structure": "Nc1nccc2c1ncn2[C@@H]1C=C[C@@H](O)[C@H]1O", "measure": "MIC", "value": "3 µg/mL"}
{"structure": "O=S1(=O)C[C@H](O)[C@@H](O)CS1", "cells": "VERO", "measure": "EC50", "read by": "virus yield", "strain": "11573", "value": "11.4 µM"}